Results of unrelated studies side by side (data: NIAID ChemDB).

All rows: tests on isolated targets; species: HIV-1; protein: Reverse transcriptase; read-out: IC50

An empty or dashed field is not shown.

| smiles | strain | changes | value |
|---|---|---|---|
| N#Cc1c(N)cccc1S(=O)(=O)c1ccccc1F | - | - | >14 µM |
| CCC(NC(=S)Nc1ccc(C)cn1)c1ccccc1 | - | - | 0.8 µM |
| CCc1c(Sc2ccccn2)n(COCc2ccccc2)c(=O)[nH]c1=O | - | RT-P236L | 7 µM |
| Cc1cc(C)c(-n2nnnc2SCC(=O)Nc2ccc(OCCCN(C)C)cc2Cl)c(C)c1 | - | RT-K103N | 0.065 µM |
| COC(=O)C1(O)CC(OC(=O)/C=C/c2ccc(O)c(O)c2)C(O)C(OC(=O)/C=C/c2ccc(O)c(O)c2)C1 | - | - | 1.7 µM |
| C/C=C/CSc1cc(NC(=S)c2ccsc2C)ccc1Cl | - | RT-P236L | 8.5 µM |
| CC(C)Nc1cccnc1N1CCN(C(=O)c2cc3cc4c(cc3[nH]2)OCO4)CC1 | IIIB | RT-P236L | 11.1 µM |
| Cc1cccc2c1nc(-c1ccc3ccccc3c1)n2Cc1c(F)cccc1F | - | - | >10 µM |
| O=C(CSc1nnnn1-c1cccc(Cl)c1Cl)Nc1ccccc1[N+](=O)[O-] | - | RT-K103N | 0.12 µM |
| O=C(OC1C[C@@](O)(C(=O)O)CC(O)[C@@H]1O)c1cc(O)c(O)c(O)c1 | - | - | >333 µg/mL |
| Cc1c(Sc2ccccc2)n(COCCO)c(=O)[nH]c1=O | - | RT-Y181I | ~4 µM |
| N#Cc1c(N)cccc1S(=O)(=O)c1cccc(Br)c1 | - | - | 12 µM |
| Cc1ccc2nc(-c3c(F)cccc3F)n(Cc3c(F)cccc3F)c2c1 | - | - | >10 µM |
| Cc1occc1C(=S)Nc1ccc(Cl)c(/C=N/OC(C)(C)C)c1 | - | RT-M184V | 5.6 µM |
| C[C@H](CCC(=O)O)[C@H]1CC[C@H]2[C@@H]3CC[C@@H]4C[C@H](O)CC[C@]4(C)[C@H]3CC[C@]12C | - | - | >1000 µM |
| N#Cc1ccc(S(=O)(=O)c2cccc(N)c2C#N)cc1 | - | - | 1.8 µM |
| Fc1cccc(F)c1Cn1c(-c2c(F)cccc2F)nc2ccc(Cl)cc21 | - | - | <10 µM |
| COc1ccccc1N1CCN(CC(=O)C(C)N2C(=O)c3ccccc3C2=O)CC1 | - | - | 20 µM |
| Nc1ccn([C@H]2CC[C@@H](COP(=O)(O)OP(=O)(O)OP(=O)(O)O)O2)c(=O)n1 | HXB2 | - | 5.6 µM |
| Cc1ccccc1-c1nc2ccccc2n1Cc1c(F)cccc1F | - | - | <10 µM |
| N#Cc1c(N)cccc1S(=O)(=O)c1cccc(F)c1 | - | - | 5 µM |
| Fc1cccc(F)c1Cn1c(-c2c(F)cccc2F)nc2cc(Br)ccc21 | - | - | >10 µM |
| Cc1cccc2nc(-c3c(F)cccc3F)n(Cc3c(F)cccc3F)c12 | - | - | >10 µM |
| C[C@H](CCC(=O)NCCS(=O)(=O)O)[C@H]1CC[C@H]2[C@@H]3CC[C@@H]4C[C@H](O)CC[C@]4(C)C3CC[C@]12C | - | - | >1000 µM |
| CCCCOc1cc(C)cc(S(=O)(=O)c2cccc(N)c2C#N)c1 | - | - | 0.7 µM |
| Cc1cccc2sc(NC(=S)NC[C@H](C)c3ccccc3)nc12 | - | - | >100 µM |
| O=C(CSc1nnnn1-c1cc(F)ccc1Cl)Nc1ccccc1[N+](=O)[O-] | - | RT-K103N | 0.01 µM |
| Cc1c(Cc2c(F)cccc2F)nc(Sc2ccc(F)cc2F)[nH]c1=O | - | RT-K103N | >400 µM |
| CNc1ccc(Cl)cc1S(=O)(=O)c1ccccc1[N+](=O)[O-] | - | RT-P236L | 0.05 µM |
| Cc1cccc2c1nc(C=O)n2Cc1c(F)cccc1F | - | - | >10 µM |
| C[C@H](CCC(=O)NCCS(=O)(=O)O)[C@H]1CC[C@H]2[C@@H]3CC[C@@H]4C[C@H](OS(=O)(=O)O)CC[C@]4(C)C3CC[C@]12C | - | - | 97 µM |
| Cc1cc(C)c(-n2nnnc2SCC(=O)Nc2ccccc2I)c(C)c1 | - | RT-K103N | 0.093 µM |
| Cc1ccc2c(c1)nc(-c1c(F)cccc1F)n2Cc1c(F)cccc1F | - | - | >10 µM |
| CCOc1ccccc1N1CCN(C(=O)c2cc3cc4c(cc3[nH]2)OCO4)CC1 | IIIB | RT-Y181C | >50 µM |
| CCC(NC(=S)Nc1cc(C)cc(C)n1)c1ccccc1 | - | - | >100 µM |
| O=C(OC1[C@H](OC(=O)c2cc(O)c(O)c(O)c2)CC(O)(C(=O)O)C[C@H]1OC(=O)c1cc(O)c(O)c(O)c1)c1cc(O)c(O)c(O)c1 | - | - | 0.08 µM |
| Cc1cccc2c1nc(-c1c(F)cccc1F)n2Cc1cccnc1 | - | - | <10 µM |
| O=C(O[C@@H]1[C@H](O)C[C@@](O)(C(=O)O)C[C@H]1OC(=O)c1cc(O)c(O)c(O)c1)c1cc(O)c(O)c(O)c1 | - | - | 7.81 µM |
| Cc1c(Cc2c(F)cccc2F)nc(Sc2ccccc2)[nH]c1=O | - | RT-K103N | >400 µM |
| Cc1cccc2c1nc(-c1c(F)cccc1F)n2Cc1c(Cl)cccc1Cl | - | - | ~10 µM |
| COc1cc(C/C=C/c2cc(O)c(O)c(O)c2)cc(OC)c1 | - | - | >100 µM |
| O=C(/C=C/c1ccc(O)c(O)c1)O[C@@H]1CC(O)(C(=O)O)C[C@@H](OC(=O)/C=C/c2ccc(O)c(O)c2)C1O | - | - | 1.16 µM |
| Cc1c(Cc2c(Cl)cccc2Cl)nc(Sc2ccccc2)[nH]c1=O | - | Y181I | >400 µM |
| C[C@@H](CNC(=S)Nc1nccs1)c1ccccc1 | - | - | 10.02 µM |
| Cc1c(Cc2c(F)cccc2F)nc(Sc2ccc(Cl)cc2)[nH]c1=O | - | Y181I | >400 µM |
| COc1ccccc1N1CCN(C(=O)c2cc3cc4c(cc3[nH]2)OCO4)CC1 | IIIB | RT-Y181C | >50 µM |
| COc1ccc(Sc2nc(Cc3c(F)cccc3F)c(C)c(=O)[nH]2)cc1 | - | Y181I | >400 µM |
| Cc1cccc2c1nc(-c1c(F)cccc1F)n2S(=O)(=O)c1ccccc1 | - | - | <10 µM |
| CC(C)=CCOc1cc(NC(=S)c2ccoc2C)ccc1Cl | - | RT-M184V | 4.2 µM |

Neighbouring rows are from separate reports. ICn: concentration for n% inhibition.